## Results of single-concentration screens

Source: ChEMBL document CHEMBL3988442, “University of Dundee, Small-Polar-MMV Screening Library” (2021).

Mtb glucose medium: 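Phenotypic screen: M. tuberculosis growth, glucose 7H9 medium, 3 days; the read-out is not stated. Concentration: 500 µM. The record gives no direction; compounds that gave an IC50 in retests scored well above the rest, so higher reads as more growth inhibition. Size under these conditions: about 18,000 compounds, about 1,400 of them at 50% or above in at least one test.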
Mtb cholesterol medium: 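Growth of Mycobacterium tuberculosis over 4 days (cholesterol / DPPC medium with tyloxapol); the read-out is not stated. Compounds at 500 µM. The record gives no direction; compounds that gave an IC50 in retests scored well above the rest, so higher reads as more growth inhibition. About 18,000 compounds were tested under these conditions; 5% (about 900) showed 50% or more at least once.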

Values are the deposited “Percent Effect”, in %.
How 0% and 100% were set is not recorded. Most values in the screen are low, and negative values occur.
The entries come from a sample that favours strong results.
A dash means the value is not listed here; it may have been measured.

| structure | Mtb glucose medium | Mtb cholesterol medium |
|---|---|---|
| `CNC(=O)NCCNc1ccccc1` | - | 9.649 |
| `CN(C)c1nccc(NC(=O)c2ccc(Br)o2)n1` | - | 21.94 |
| `CCCSCC(=O)NCc1cc(O)nc(C)n1` | 5.538 | - |
| `CCN(C)C(C)(C)C(=O)Nc1ncccc1O` | -0.8706 | - |
| `Cc1ccc2c(OCC(N)=O)cccc2n1` | - | -3.914 |
| `N#Cc1ccc(CN2CCCSCC2)o1` | 32.69 | - |
| `Cc1nccn1CCCNC(=O)c1cn(CCN)nn1` | 2.024 | - |
| `CCOCC(=O)Nc1cc(C(=O)NC)ccc1C` | - | 5.378 |
| `Cc1nc(C)c(CNc2ccc(C#N)nc2)s1` | 1.37 | 4.009 |
| `CN(CC(C)(C)S(C)(=O)=O)S(=O)(=O)c1ccccc1Cl` | 25.03 | - |
| `COc1cc(C(=O)NC(C)CCO)ccc1OC(C)C` (stereo unspecified) | 8.078 | -2.519 |
| `N#Cc1ccnc(SCC(=O)Nc2ccncc2)c1` | 6.699 | - |
| `OC1CCN(Cc2ccc3c(c2)CCC3)C1` (stereo unspecified) | 60.61 | - |
| `O=C1NC(=O)c2c(O)cccc21` | 56.22 | 62.05 |
| `COCc1noc([C@@H]2CN(C3CCC3)C[C@H]2CO)n1` | -5.504 | - |
| `CCOc1ccc(NC(=O)NC2CCN(C)CC2)cc1` | 0.09022 | - |
| `c1cc(SCCOCC2CCCO2)ccn1` (stereo unspecified) | 28.9 | - |
| `CN1CCN(c2ccccc2NC(=O)C2CC2)CC1` | 16.53 | - |
| `N[C@@H]1CC[C@H](C(=O)NCCOCc2ccccc2)C1` | 68.95 | - |
| `NC(=O)N1CCCN(Cc2cc(Cl)cs2)CC1` | 24.66 | - |
| `Cn1cc(NC(=O)CC(C)(C)C)ccc1=O` | -6.121 | - |
| `CCN[C@H](C)CNC(=O)c1ccccc1` | -3.663 | - |
| `COc1ccc(CC(=O)N2CCN(C)CC2)c(OC)c1` | 11.95 | - |
| `CCOc1nc(N2CC(O)C2)ncc1Br` | -19 | - |
| `NC(=O)NC(=O)CSc1nncs1` | 6.287 | - |
| `CCNC(=O)C(C)NC(=O)c1ccc(OC)c(OC)c1` (stereo unspecified) | 3.384 | - |
| `Cc1nn(CCO)c(C)c1CNCC(=O)NC(C)(C)C` | - | 2.608 |
| `Cn1ccnc1CN1CCN(Cc2ccncc2)CC1` | 0.7017 | - |
| `Cc1nn(CCO)c(C)c1CNCC1(O)CCCCC1` | - | -7.002 |
| `Cc1cc(C)cc(NC(=O)CNCCCO)c1` | 50.04 | - |
| `CC(CNS(N)(=O)=O)Cc1cccs1` (stereo unspecified) | - | 40.79 |
| `c1ccc(C2=NN=C(NC3CC3)SC2)cc1` | 67.67 | 61.78 |
| `CCCn1nccc1C(=O)N1CCOC[C@@H]1CC` | 12.3 | - |
| `COc1ncccc1CNS(=O)(=O)C1CC1` | -8.416 | -24.24 |
| `COCC(C)(N)C(=O)OC` (stereo unspecified) | 0.4379 | - |
| `CCC(CO)(CO)NCC(O)COCc1ccco1` (stereo unspecified) | 19.36 | - |
| `CNC(=O)CSc1nc2cc(F)c(F)cc2[nH]1` | 22.13 | -2.249 |
| `Cn1cc(C(=O)NCc2ccccc2F)cn1` | 36.12 | - |
| `CN1CC2(CCN(Cc3nccn3C)CC2)OC1=O` | - | 1.693 |
| `Cc1c[nH]c(C(=O)N2CCCN(CC(C)C)CC2)n1` | - | 10.52 |
| `N[C@@H]1CCO[C@H]1c1ccc(=O)[nH]c1` | 1.534 | - |
| `NC(=O)CN(Cc1ccsc1)C1CC1` | - | 4.37 |
| `CC(O)(C1CCNCC1)C(F)(F)F` (stereo unspecified) | - | 3.374 |
| `CC(CN)c1ccc(S(C)(=O)=O)cc1` (stereo unspecified) | 3.735 | - |
| `COc1ccc(CCN)c(Cl)c1` | -8.05 | -11.76 |
| `O=C(c1ccc(N2CCOCC2)c(F)c1)N1CCCC1` | -0.3869 | - |
| `Cc1nn(C)c(Cl)c1C(=O)NCc1ccccn1` | 22.26 | - |
| `CN(Cc1cnn(C)c1)C(=O)C1CCNCC1` | 8.21 | - |
| `Cc1cc(CNC(=O)CSc2ccncc2)on1` | 8.87 | - |
| `NC(=O)c1ccc(CNC2CCCc3sccc32)o1` (stereo unspecified) | 23.71 | - |
| `Cc1nc(CN2CCC[C@H]2C(=O)N2CCOCC2)cs1` | - | -14.69 |
| `NC(=O)C1CCCN(Cc2ccccc2Cl)C1` (stereo unspecified) | 8.135 | - |
| `CN1CCC(NC(=O)CCc2ccccc2F)CC1` | - | -15.59 |
| `CSc1ccncc1N` | - | 0.5444 |
| `NC(=O)c1cccc(CSc2ccncc2)c1` | 17.65 | - |
| `Cc1cc(C(=O)NCc2cccnc2OC(C)C)on1` | - | 36.53 |
| `CC(C)(C)CCC(N)C(N)=O` (stereo unspecified) | - | 16.58 |
| `NC(=O)C1(NC(=O)C2CCc3ccccc32)CCCC1` (stereo unspecified) | - | 2.796 |
| `N#CC1=C(N)n2ncnc2NC1c1ccccc1` (stereo unspecified) | -6.983 | - |
| `Nc1cc(-c2ccc3c(c2)OCCO3)n[nH]1` | -15.24 | -13.55 |
| `CC(NC(=O)c1sccc1C1CC1)C(N)=O` (stereo unspecified) | 12.98 | 10.19 |
| `O=C(NCc1cccnc1)NCc1cc[nH]n1` | -13.36 | - |
| `CN1CCC(NC(=O)c2ccc(Br)o2)CC1` | 11.92 | - |
| `CC(NCCN1CCOCC1)C1CCOCC1` (stereo unspecified) | - | 8.751 |
| `Cc1cc(C)cc(NC(=O)CCN2CCSCC2)c1` | -14.56 | - |
| `CCc1cc(C(N)=O)sc1C` | 29.13 | - |
| `c1nnc(SC2CCOCC2)s1` | 22.13 | 10.51 |
| `CCCC(=O)Nc1nnc(-c2ccccn2)s1` | 0.1933 | - |
| `NC(=O)CC1CCN(Cc2ccccc2F)CC1` | - | -3.774 |
| `CN1CCC(CCN)CC1` | - | -36.06 |
| `COc1ccc(NC(=O)CSc2ncnc(N)n2)cc1` | 6.5 | - |
| `CNC(=O)NC(=O)CN(C)CCOc1cccc(F)c1` | - | 28.67 |
| `O=C(c1cnsn1)N1CCCSc2ccc(F)cc21` | 78.03 | -1.232 |
| `CC1=C(C(=O)NC(C)c2nc3ccccc3[nH]2)CCO1` (stereo unspecified) | 23.4 | - |
| `CCCN1CCCN(C(=O)CCS(C)(=O)=O)CC1` | - | 25.22 |
| `O=C(NCC1CCS(=O)(=O)C1)N(CCO)C1CC1` (stereo unspecified) | - | -2.283 |
| `COC(=O)COc1ccc2c(c1)OCO2` | 43.17 | 66.68 |
| `Cc1cc2cccc(C(=O)NCCOCCO)c2o1` | -6.827 | - |
| `Cc1cc(NC(=O)Cn2ncn(C)c2=O)cc(C)c1Br` | 0.2138 | - |
| `CNC1CCN(C(=O)c2ccsc2)CC1` | -7.028 | -13.94 |
| `Cc1cc(C(=O)N2CCCC2C(=O)NC2CC2)no1` (stereo unspecified) | -5.256 | - |
| `CCc1nc(CNc2ccc(C#N)nc2)cs1` | 66.74 | 64.56 |
| `COc1ccccc1CC#N` | 1.219 | - |
| `NCc1ccc(N2CCOCC2)cc1` | -6.967 | - |